This note sets out measurements from PubChem BioAssay AID1721 (National Center for Advancing Translational Sciences (NCATS), 2009).

By UniProt entry, the sequences of proteins in these tests, tags left out.
UniProt Q27686, whole entry: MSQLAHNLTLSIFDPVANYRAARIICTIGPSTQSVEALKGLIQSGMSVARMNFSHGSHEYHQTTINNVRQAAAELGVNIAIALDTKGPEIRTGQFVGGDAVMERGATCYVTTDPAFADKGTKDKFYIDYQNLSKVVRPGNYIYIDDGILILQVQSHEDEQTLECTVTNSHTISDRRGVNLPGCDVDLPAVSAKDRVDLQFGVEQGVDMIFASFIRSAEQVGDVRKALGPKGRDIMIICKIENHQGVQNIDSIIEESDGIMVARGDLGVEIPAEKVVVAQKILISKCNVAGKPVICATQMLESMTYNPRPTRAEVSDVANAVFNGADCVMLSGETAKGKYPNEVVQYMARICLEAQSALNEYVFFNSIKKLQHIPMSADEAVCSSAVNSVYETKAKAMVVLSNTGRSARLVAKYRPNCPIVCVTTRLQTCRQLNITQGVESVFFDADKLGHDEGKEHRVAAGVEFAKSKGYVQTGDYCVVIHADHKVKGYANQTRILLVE

Each structure is given as a SMILES string. The list shows a part of the results, in another mix than the full data. Active and inactive are the calls of the source. Calls follow the shape of the dose curve; as a rule, active = well fitted inhibition curve with a large enough effect; inconclusive = small, poorly fitted or top-dose-only effect, or another doubt; inactive = no such curve, though single readings can be large or run the other way.
% is scaled to controls: 0 for no effect and ±100 for the full control effect.

In the assay the target is Pyruvate kinase (Leishmania mexicana) (UniProt Q27686). Briefly: qHTS Assay for Inhibitors of Leishmania Mexicana Pyruvate Kinase (LmPK). As to conditions: purified LmPK, Kinase-Glo ATP luminescence, 1 h; at 57.5 µM (top of the series). The source says: NIH Chemical Genomics Center [NCGC] Malcolm Walkinshaw, Hugh Morgan, Linda Gilmore University of Edinburgh, UK MLPCN Grant: 1 R03 MH085697-01 NCGC Assay Overview: Pyruvate kinase (L. Mexicana) (LmPK) enzyme was supplied as a highly purified (>95% pure) sulphate-free preparation from University of Edinburgh, UK and assayed for its ability to generate ATP from ADP using phosphoenolpyruvate (PEP) as a substrate. ATP generation was detected in a coupled reaction by luciferase-mediated luminescence, an ATP-dependent process. […] The enzyme was assayed at an intermediate level of activity to screen for both inhibitors and activators.
NCGC Assay Protocol Summary: Three uL of enzyme mix (kept on ice) in assay buffer (50 mM Imidazole pH7.2, 50 mM KCl, 7 mM MgCl2, 0.01% Tween 20, 0.05% BSA) containing PEP (0.5 mM final concentration) and LmPK (0.1 nM final concentration) was dispensed into white solid bottom 1,536 well microtiter plates. 23 nL of compound were delivered by a pin tool and 1 uL of ADP mix in assay buffer (r.t; 0.1 mM final ADP concentration) was added. Plates were incubated at room temperature for 1 hour. Two uL of detection mix (Kinase-Glo, Promega; at 4 degree Celsius protected from light) was added and luminescence read by a ViewLux (Perkin Elmer) at 1 second exposure/plate. Data were normalized to the uninhibited and AC100 inhibition (no enzyme). To monitor activation, the first column contained a five-fold concentration of LmPK (0.5 nM).
On the technique in general: In qHTS, concentration-response curves come from the screen itself.
As for `CCN(CC)CCCOC(=O)C(O)(c1ccccc1)c1ccccc1`, the activity change, negative = inhibition is inactive: 3.72%.
As for `CN1CCCCC1COC(=O)C1(O)c2ccccc2CCc2ccccc21` (centres undefined), the activity change, negative = inhibition was inactive: -0.0792%.
For the compound `CCN(CC)CCCOC(=O)C(O)(c1ccccc1)C1CCCCC1` (centres undefined), the activity change, negative = inhibition is inactive: 3.58%.
`O=C(OCCN1CCN(CCOCc2ccccc2)CC1)C(O)(c1ccccc1)c1ccccc1`: the activity change, negative = inhibition was inactive: 2.89%.
Turning to `CN(C)CCOC(=O)C(O)(c1ccccc1)C1CCCCC1` (centres undefined), the activity change, negative = inhibition was inactive: 3.85%.
Consider `O=[N+]([O-])c1ccc(OP2(=O)COCCO2)cc1` (centres undefined), for which the activity change, negative = inhibition is inactive: -2.35%.
As for `CCN(CC)CC(O)COC(=O)C(O)(c1ccccc1)C1CCCCC1` (centres undefined), the activity change, negative = inhibition was inactive: 0.466%.
In the case of `O=C(OCCCN1CCCC1)C(O)(c1ccccc1)C1CCCCC1` (centres undefined), the activity change, negative = inhibition was inactive: 1.45%.
In the case of `CN(C)CCOC(=O)C(O)(c1ccccc1)C1CCCC1` (centres undefined) it was inactive: 0.515%.
